Measured values reported in PMC5666006 (Scientific Reports, 2017).

Experiment: general procedure: Fmoc solid-phase peptide synthesis; 2-Chlorotrytil chloride resin; HOAt/PyBOP/DIEA; PyAOP/DIEA for cyclization
Details: whole synthesis, analytical HPLC at 220 nm
For “PEPTIDE1{[dR].P.W.[dR].P.W}$PEPTIDE1,PEPTIDE1,1:R1-6:R2$$$V2.0”, the “final HPLC purity” value was 95%. For “PEPTIDE1{R.[dP].W.R.[dP].W}$PEPTIDE1,PEPTIDE1,1:R1-6:R2$$$V2.0”, the “final HPLC purity” value was 96%. In the case of “PEPTIDE1{R.P.[dW].R.P.[dW]}$PEPTIDE1,PEPTIDE1,1:R1-6:R2$$$V2.0”, the “final HPLC purity” value is reported as 100%. With “PEPTIDE1{W.[dP].R.W.[dP].R}$PEPTIDE1,PEPTIDE1,1:R1-6:R2$$$V2.0” the “final HPLC purity” value was 92%. With “PEPTIDE1{S.[dP].W.S.[dP].W}$PEPTIDE1,PEPTIDE1,1:R1-6:R2$$$V2.0” the “final HPLC purity” value was 100%. In the case of “PEPTIDE1{[ac].W.[dP].R.W.[dP].R}$$$$V2.0”, the “final HPLC purity” value is reported as 100%. For “PEPTIDE1{E.[dP].W.E.[dP].W}$PEPTIDE1,PEPTIDE1,1:R1-6:R2$$$V2.0”, the “final HPLC purity” value was 95%.

Strings that start with PEPTIDE1 are HELM notation: dots part the residues, brackets hold end groups and non-standard residues.
